Earlier results on one substance are cited in article PMC10643566, “Insights into the mechanism of SARS-CoV-2 main protease autocatalytic maturation from model precursors” (Communications Biology, 2023).

This data set relates to FRET substrate Dabcyl-KTSAVLQ/SGFRKM-E(Edans)-NH2. Conditions: ref [11],[13]; cited from earlier work.

Take “MPro^1–199: MPro catalytic domain lacking the entire helical domain (residues 200–306), monomer”: the Catalytic/Binding species entry is “Monomer”.
